Drawing on PMC3396687 (PLoS ONE, 2012), this text covers α-helix content for 4 compounds.

A short description of the series: Circular dichroism, secondary structure content. The class given is physicochemical. The settings on record: 50% TFE, far-UV CD, original and water-subtracted spectra deconvoluted with CDPro, CDNN, KJ2D; 0.3 mg/mL.

Turning to “KFWKRFWHWLQLKPGQPMY [IP3, 19-residue Iztli peptide]”, the α-helix content entry was “up to 70%”. Next, “RRLKDFWHWLQLKPGQPMY [IP2, 19-residue Iztli peptide: α-pheromone with 6 residues added at the N-terminus]”: 75–90%. Next, “RKLQKFWHWLQLKPGQPMY [IP4, 19-residue Iztli peptide]”: “up to 70%”. Next, `CSCC[C@H](NC(=O)[C@@H]1CCCN1C(=O)[C@H](CCC(N)=O)NC(=O)CNC(=O)[C@@H]1CCCN1C(=O)[C@H](CCCCN)NC(=O)[C@H](CC(C)C)NC(=O)[C@H](CCC(N)=O)NC(=O)[C@H](CC(C)C)NC(=O)[C@H](Cc1c[nH]c2ccccc12)NC(=O)[C@H](Cc1c[nH]cn1)NC(=O)[C@H](Cc1c[nH]c2ccccc12)NC(=O)[C@H](Cc1ccccc1)NC(=O)[C@H](CCCNC(=N)N)NC(=O)[C@H](CC(N)=O)NC(=O)[C@H](CC(C)C)NC(=O)[C@H](Cc1ccccc1)NC(=O)[C@@H](N)CCCCN)C(=O)N[C@@H](Cc1ccc(O)cc1)C(=O)O` [IP1]: 75–90%.
